For part of these data: The source's definition of the ratio is not given here.
Experiments:
HCoV-229E [1] = test: HCoV-229E-Luc infection inhibition luciferase assay; format: cell-based; conditions: selective index against HCoV-229E
HCoV-229E [2] = test: Cryo-EM of virions after osmotic shock; conditions: 10 μM, 400 mM NaCl

Row | Molecule | SI (HCoV-229E [1]) | virion shape after osmotic shock, light (HCoV-229E [2]; 30 min light exposure) | virion shape after osmotic shock, dark (HCoV-229E [2]; dark)
1 | HPPH | 7.1 |  | 
2 | C=Cc1c(C)c2cc3nc(c(CC(=O)O)c4[nH]c(cc5nc(cc1[nH]2)C(C)=C5CC)c(C)c4C(=O)O)[C@@H](CCC(=O)O)[C@@H]3C [Chlorin e6, chlorin e6] | 29.7 |  | 
3 | C=Cc1c(C)c2cc3nc(c4c5[nH]c(cc6nc(cc1[nH]2)C(C)=C6CC)c(C)c5C(=O)C4)[C@@H](CCC(=O)O)[C@@H]3C [PyroPba, pyropheophorbide a] | 7.6 |  | 
4 | C=Cc1c(C)c2cc3nc(c4c5[nH]c(cc6nc(cc1[nH]2)C(C)=C6CC)c(C)c5C(=O)[C@@H]4C(=O)OC)[C@@H](CCC(=O)O)[C@@H]3C [Pba, pheophorbide a] | 11.2 | no membrane deformation was observed | a similar alteration of viral shape was observed
5 | N-methyl protoporphyrin IX | >66.1 |  | 
6 | C=CC1=C(C)c2cc3[n-]c(cc4[n-]c(cc5nc(cc1n2)C(C)=C5C=C)c(C)c4CCC(=O)O)c(CCC(=O)O)c3C.[Zn+2] [Zn protoporphyrin IX, Zn-protoporphyrin IX] | 21.0 |  | 
7 | CCC1=C(C)c2cc3[nH]c(cc4nc(cc5c(CCC(=O)O)c(C)c(cc1n2)n5C)C(CCC(=O)O)=C4C)c(C)c3CC [N-Methyl mesoporphyrin IX, N-methyl mesoporphyrin IX] | >64 |  | 
